Measurements taken from publication PMC12388504, “Antiparasitic Effect of Polyphenols and Terpenes from Natural Products Against Trypanosoma cruzi and Leishmania mexicana” (Metabolites, 2025).

Tests used:
[1] = tested on: T. cruzi epimastigotes A1 strain; assay: Anti-Trypanosoma cruzi activity, epimastigotes A1 strain (MTT); format: cell-based; conditions: Selectivity index (CC50/IC50), J774.2 vs A1
[2] = tested on: T. cruzi epimastigotes NINOA strain; assay: Anti-Trypanosoma cruzi activity, epimastigotes NINOA strain (MTT); format: cell-based; conditions: Selectivity index (CC50/IC50), J774.2 vs NINOA

| Structure (SMILES) | T. cruzi SI A1 [1] | T. cruzi SI NINOA [2] |
| --- | --- | --- |
| Cc1ccccc1CO [Compound 3, 2-methylbenzyl alcohol] | 0.3 | 0.3 |
| Cc1ccc(CO)cc1 [Compound 2, 4-methylbenzyl alcohol] | 4.0 | 3.9 |
| OCC=Cc1ccccc1 [Compound 9, cinnamyl alcohol] | 2.1 | 0.2 |
| COc1ccc(CCO)cc1 [Compound 8, 4-methoxyphenethyl alcohol] | 1.0 | 1.0 |
| CC(C)[C@H]1CC[C@H](C)C[C@@H]1O [Compound 14, l-(-)-menthol] | 1.0 | 8.2 |
| OC1CCCC1 [Compound 18, cyclopentyl alcohol] | 2.3 | 0.1 |
| CC(C)=CCCC(C)CCO (stereo not drawn) [Compound 11, β-citronellol] | 9.3 | 3.7 |
| OCc1ccccc1 [Compound 1, benzyl alcohol] | 0.4 | 0.1 |
| C=C(C)[C@H]1CC=C(CO)CC1 [Compound 15] | 1.0 | 1.0 |
| CC(C)=CCO [Compound 10, prenol] | 1.0 | 7.3 |
| CC(C)=CCC/C(C)=C/CO [Compound 12, geraniol] | 1.6 | 4.9 |
| OCc1ccc2ccccc2c1 [Compound 5, 2-naphtalenemethanol] | 1.0 | 1.6 |
| OCCc1ccccc1 [Compound 7, phenethyl alcohol] | 0.4 | 1.9 |
